The source of these data is PMC12658140 (Nature Communications, 2025).

This assay addresses H3N8 A/mallard/Alberta/362/2017 HA ectodomain (influenza A virus H3N8 …). Kind of assay: cryo-EM structure.

B1: AG2-G02 Fab (Fab, V domains shown)
VH: VQLVQSGAEMKKPGASVKVSCKASGYTFSAYYIHWVRQAPGQGLEWMGRINTDSGGTNFAQQFEGRVTMTRDTSISTAYMELSSLRSDDTAVYYCARGYDFWLGSYRAGGWFDPWGQGTLVTVSS
VL: not shown
With B1, the “stoichiometry N” value amounted to 3 copies per HA trimer.

B2: 240-14 IgA 2F02 Fab (Fab, V domains shown)
VH: EVQLLESGGGLVQPGGSLRLSCAASGFTFSTYAMSWVRQAPGKGLEWVSTISGSGGSTYDAESVKGRFTISRDNSKNTLYLQMNSLRAEDTAVYYCAKEGGDFWSGYYANWFDPWGQGTLVTVSS
VL: QSALTQPRSVSGSPGQSVTISCTGTRSDVGGYNYVSWYQQHPGKAPKVIIYDVKKRPSGVPDRFSGSKSGNTASLTISGLQAEDEADYYCSAFAGSHTLFGGGTKVTVL
B2: the “stoichiometry N” value was determined as 3 copies per HA trimer.
